Pooled drug test results. Numbers come from NIAID ChemDB, via PubChem.

All rows: whole-cell or culture tests

a–b is a range or a potency band. Percent inhibition refers to the dose given; in toxicity tests it is the harm to the cells. MIC50, MIC90 and the like: level of inhibition, or share of isolates inhibited. Blank or dashed fields: not listed here. Rows are shuffled and stem from different studies.

structure,method,setting,tested at,strain,endpoint,organism,value
CCCCCCCC(CCCCCCC)NC(=O)NC(CCC(=O)O)(CCC(=O)O)CCC(=O)O,-,-,-,mc155,MIC,Mycobacterium smegmatis,36 µg/mL
Cc1ccc2nc(C)c(C(=O)NCc3ccc(N4CCOCC4)cc3)n2c1,fluorescence,-,-,-,MIC50,Mycobacterium ulcerans,1–10 µg/mL
C[C@@H](O)[C@H]1C(=O)N2C(C(=O)O)=C(SCCN=CN)C[C@H]12,-,-,-,1030-8,MIC,Mycobacterium fortuitum,1.56 µg/mL
CO[C@H]1/C=C/O[C@@]2(C)Oc3c(C)c(O)c4c(=O)c(c5oc6cc(N7CCN(CC(C)C)CC7)cc(=O)c6nc5c4c3=C2O)NC(=O)/C(C)=C\C=C\[C@H](C)[C@H](O)[C@@H](C)[C@@H](O)[C@@H](C)[C@H](OC(C)=O)[C@@H]1C,-,-,-,Isolate 94-539,MBC,Mycobacterium ulcerans,0.012 µg/mL
CC1(C)N=C(N)N=C(N)N1OCCCOc1cc(Cl)c(Cl)cc1Cl,-,-,-,3176,MIC,Mycobacterium avium complex,1 µg/mL
CO[C@@]1(NC(=O)CCCC(N)C(=O)O)C(=O)N2C(C(=O)O)=C(COC(N)=O)CSC21,-,-,-,1045,MIC,Mycobacterium fortuitum,>100 µg/mL
CCCCCCNNC(=O)O[C@H]1[C@H](O[C@@H]2[C@@H](C)[C@H](O[C@H]3C[C@@](C)(OC)[C@@H](OC(C)=O)[C@H](C)O3)[C@@H](C)C(=O)O[C@H](CC)[C@@](C)(O)[C@H](O)[C@@H](C)/C(=N/OCCCC3CCCCC3)[C@H](C)CC2(C)O)O[C@H](C)C[C@@H]1N(C)C,-,-,-,20039 (clarithromycin-susceptible),MIC,Mycobacterium avium complex,1.56 µg/mL
CCCCCCCCCCCCCCCCC(=O)NC(CCC(=O)O)(CCC(=O)O)CCC(=O)O,-,-,-,ATCC 927,MIC,Mycobacterium marinum,288 µg/mL
CC1(C)N=C(N)N=C(N)N1OCCCOc1cc(Cl)c(Cl)cc1Cl,-,-,-,DW9,MIC,Mycobacterium avium complex,2 µg/mL
CC[C@H]1OC(=O)[C@H](C)[C@@H](OC2C[C@@](C)(OC)[C@@H](OC(=O)Cc3ccccc3)[C@H](C)O2)[C@H](C)[C@@H](O[C@@H]2O[C@H](C)C[C@H](N(C)C)[C@H]2O)C(C)(O)C[C@@H](C)/C(=N\OCCCOc2ccccc2)[C@H](C)[C@@H](O)[C@]1(C)O,-,-,-,20092 (clarithromycin-resistant),MIC,Mycobacterium avium complex,3.13 µg/mL
CO[C@@]1(NC(=O)CCCC(N)C(=O)O)C(=O)N2C(C(=O)O)=C(COC(C)=O)CSC21,-,-,-,1260,MIC,Mycobacterium fortuitum,>100 µg/mL
O=c1oc2ccc(F)cc2c(=S)n1-c1cccc(F)c1,-,14 d,-,My 235/80,MIC,Mycobacterium kansasii,16 µM
CCc1nc(N)nc(N)c1-c1ccc(Cl)cc1,-,-,-,DW14,MIC,Mycobacterium avium complex,32 µg/mL
CC[C@H]1OC(=O)[C@H](C)[C@@H](OC(=O)Cc2ccncc2)[C@H](C)[C@@H](O[C@@H]2O[C@H](C)C[C@H](N(C)C)[C@H]2O)C(C)(O)C[C@@H](C)/C(=N\OCCCOc2ccccc2)[C@H](C)[C@@H](O)[C@]1(C)O,-,-,-,20096 (clarithromycin-resistant),MIC,Mycobacterium avium complex,25 µg/mL
CCCCCCCCCCCCCCNC(=O)NC(CCC(=O)O)(CCC(=O)O)CCC(=O)O,-,-,-,ATCC 927,MIC,Mycobacterium marinum,216 µg/mL
CCNC(=O)c1c(Cl)nc2ccccn12,fluorescence,-,-,-,MIC50,Mycobacterium ulcerans,>10 µg/mL
COc1ccc2oc(=O)n(-c3ccc(Cl)c(Cl)c3)c(=S)c2c1,-,21 d,-,My 235/80,MIC,Mycobacterium kansasii,62.5 µM
CC[C@H]1OC(=O)[C@H](C)[C@@H](O[C@H]2C[C@@](C)(OC)[C@@H](OC(C)=O)[C@H](C)O2)[C@H](C)[C@@H](O[C@@H]2O[C@H](C)C[C@H](N(C)C)[C@H]2OC(=O)NNCc2ccc(OC)cc2)C(C)(O)C[C@@H](C)/C(=N\OCCCC2CCCCC2)[C@H](C)[C@@H](O)[C@]1(C)O,-,-,-,20039 (clarithromycin-susceptible),MIC,Mycobacterium avium complex,0.78 µg/mL
CCOc1ccc(N2CCN(c3ccc(CNC(=O)c4c(CC)nc5cc(F)ccn45)cc3F)C[C@@H]2C)cc1.Cl,fluorescence,-,0.0071 µM,-,inhibition,Mycobacterium avium,85%
Cc1ccn2c(C(=O)NCc3ccc(N4CCOCC4)cc3)c(C)nc2c1,fluorescence,-,-,-,MIC50,Mycobacterium ulcerans,0.1–1 µg/mL
CCc1nc2cc(F)ccn2c1C(=O)NCc1ccc(N2CCN(c3ccc(OC(F)(F)F)c(F)c3)[C@@H](C)C2)c(F)c1.Cl,fluorescence,-,0.0025 µM,-,inhibition,Mycobacterium avium,85%
Cc1nc2ccc(Cl)cn2c1C(=O)NCc1ccc(OC(F)(F)F)cc1,fluorescence,-,-,-,MIC50,Mycobacterium ulcerans,0.1–1 µg/mL
CC[C@H]1OC(=O)[C@H](C)[C@@H](OC(=O)CCCc2ccccc2)[C@H](C)[C@@H](O[C@@H]2O[C@H](C)C[C@H](N(C)C)[C@H]2O)C(C)(O)C[C@@H](C)/C(=N\OCCCOc2ccccc2)[C@H](C)[C@@H](O)[C@]1(C)O,-,-,-,20066 (clarithromycin-susceptible),MIC,Mycobacterium avium intracellulare,12.5 µg/mL
Fc1ccc2oc(=S)n(-c3ccc(C(F)(F)F)cc3)c(=S)c2c1,-,21 d,-,6509/96,MIC,Mycobacterium kansasii,8 µM
Cc1ccn2c(C(=O)NCc3ccc(C4CCN(c5cccc(OC(F)(F)F)c5)CC4)c(F)c3)c(C)nc2c1,fluorescence,-,0.13 µM,-,inhibition,Mycobacterium avium,85%
CO[C@@]1(NC(=O)Cc2cccs2)C(=O)N2C(C(=O)O)=C(COC(N)=O)CS[C@@H]21,-,-,-,1059,MIC,Mycobacterium fortuitum,50 µg/mL
CCCCCCC(=O)O[C@H]1[C@H](C)OC(O[C@H]2[C@H](C)[C@@H](O[C@@H]3O[C@H](C)C[C@H](N(C)C)[C@H]3O)C(C)(O)C[C@@H](C)/C(=N\OCCCOc3ccccc3)[C@H](C)[C@@H](O)[C@](C)(O)[C@@H](CC)OC(=O)[C@@H]2C)C[C@@]1(C)OC,-,-,-,20039 (clarithromycin-susceptible),MIC,Mycobacterium avium complex,1.56 µg/mL
CCOc1ccc(N2CCN(c3ccc(CNC(=O)c4c(CC)nc5ccc(Cl)cn45)cc3F)C[C@@H]2C)cc1OC.Cl,fluorescence,-,0.69 µM,-,inhibition,Mycobacterium avium,85%
Cc1ccc2oc(=O)n(-c3ccccc3)c(=S)c2c1,-,14 d,-,My 235/80,MIC,Mycobacterium kansasii,2 µM
CCCCCCCCCCCCCCCCCCCCCOC(=O)NC(C)(CCC(=O)O)CCC(=O)O,-,-,-,mc155,MIC,Mycobacterium smegmatis,177 µg/mL
CCc1nc2cc(F)ccn2c1C(=O)NCc1cc(F)c(N2CCN(c3ccc(OC(F)(F)F)cc3)[C@@H](C)C2)cc1F.Cl,fluorescence,-,0.0072 µM,-,inhibition,Mycobacterium avium,85%
CCCC(=O)O[C@H]1[C@H](C)OC(O[C@H]2[C@H](C)[C@@H](O[C@@H]3O[C@H](C)C[C@H](N(C)C)[C@H]3O)C(C)(O)C[C@@H](C)/C(=N\OCCCOc3ccccc3)[C@H](C)[C@@H](O)[C@](C)(O)[C@@H](CC)OC(=O)[C@@H]2C)C[C@@]1(C)OC,-,-,-,20096 (clarithromycin-resistant),MIC,Mycobacterium avium complex,0.78 µg/mL
CCCCCCCCCCCC(CCCCCCCCCCC)NC(=O)NC(CCC(=O)O)(CCC(=O)O)CCC(=O)O,-,-,-,AAy-P-1,MIC,Mycobacterium abscessus,27 µg/mL
Cc1ccc2ncc(C(=O)NCc3ccc(N4CCSCC4)cc3)n2c1,fluorescence,-,-,-,MIC50,Mycobacterium ulcerans,1–10 µg/mL
CCCCCCCCN(CCCCCCCC)C(=O)NC(CCC(=O)O)(CCC(=O)O)CCC(=O)O,-,-,-,EO-P-1,MIC,Mycobacterium chelonae,54 µg/mL
CO[C@H]1/C=C/O[C@@]2(C)Oc3c(C)c(O)c4c(O)c(c(/C=N/N5CCN(C6CCCC6)CC5)c(O)c4c3C2=O)NC(=O)/C(C)=C\C=C\[C@H](C)[C@H](O)[C@@H](C)[C@@H](O)[C@@H](C)[C@H](OC(C)=O)[C@@H]1C,-,-,-,92,MIC,Mycobacterium avium intracellulare,0.125 µg/mL
CO[C@@]1(NC(=O)C2SC(=C(C(N)=O)C(=O)[O-])S2)C(=O)N2C(C(=O)[O-])=C(CSc3nnnn3C)CS[C@@H]21,-,-,-,1260,MIC,Mycobacterium fortuitum,25 µg/mL
S=c1oc2ccc(Br)cc2c(=S)n1-c1ccc(Cl)c(Cl)c1,-,14 d,-,6509/96,MIC,Mycobacterium kansasii,2 µM
CC[C@H]1OC(=O)[C@H](C)[C@@H](OC2C[C@@](C)(OC)[C@@H](O)[C@H](C)O2)[C@H](C)[C@@H](O[C@@H]2O[C@H](C)C[C@H](N(C)C)[C@H]2O)C(C)(O)C[C@@H](C)/C(=N\OCCc2cccs2)[C@H](C)[C@@H](O)[C@]1(C)O,-,-,-,20092 (clarithromycin-resistant),MIC,Mycobacterium avium complex,50 µg/mL
Cc1ccc2oc(=S)n(-c3cccc(F)c3)c(=S)c2c1,-,21 d,-,My 235/80,MIC,Mycobacterium kansasii,16 µM
CCCCCCCCCCCCC(=O)O[C@H]1[C@H](C)OC(O[C@H]2[C@H](C)[C@@H](O[C@@H]3O[C@H](C)C[C@H](N(C)C)[C@H]3O)C(C)(O)C[C@@H](C)/C(=N\OCCCOc3ccccc3)[C@H](C)[C@@H](O)[C@](C)(O)[C@@H](CC)OC(=O)[C@@H]2C)C[C@@]1(C)OC,-,-,-,20066 (clarithromycin-susceptible),MIC,Mycobacterium avium intracellulare,>50 µg/mL

Repeating the first 6 entries:

structure	method	setting	tested at	strain	endpoint	organism	value
CCCCCCCC(CCCCCCC)NC(=O)NC(CCC(=O)O)(CCC(=O)O)CCC(=O)O	-	-	-	mc155	MIC	Mycobacterium smegmatis	36 µg/mL
Cc1ccc2nc(C)c(C(=O)NCc3ccc(N4CCOCC4)cc3)n2c1	fluorescence	-	-	-	MIC50	Mycobacterium ulcerans	1–10 µg/mL
C[C@@H](O)[C@H]1C(=O)N2C(C(=O)O)=C(SCCN=CN)C[C@H]12	-	-	-	1030-8	MIC	Mycobacterium fortuitum	1.56 µg/mL
CO[C@H]1/C=C/O[C@@]2(C)Oc3c(C)c(O)c4c(=O)c(c5oc6cc(N7CCN(CC(C)C)CC7)cc(=O)c6nc5c4c3=C2O)NC(=O)/C(C)=C\C=C\[C@H](C)[C@H](O)[C@@H](C)[C@@H](O)[C@@H](C)[C@H](OC(C)=O)[C@@H]1C	-	-	-	Isolate 94-539	MBC	Mycobacterium ulcerans	0.012 µg/mL
CC1(C)N=C(N)N=C(N)N1OCCCOc1cc(Cl)c(Cl)cc1Cl	-	-	-	3176	MIC	Mycobacterium avium complex	1 µg/mL
CO[C@@]1(NC(=O)CCCC(N)C(=O)O)C(=O)N2C(C(=O)O)=C(COC(N)=O)CSC21	-	-	-	1045	MIC	Mycobacterium fortuitum	>100 µg/mL